From patent US20230145822A1 (priority 2020, published 2023)

Sequences of proteins named here, by UniProt entry; tags and fusion partners are left off. Residues count along the entry.
UniProt P04925, 23-254 limits assumed: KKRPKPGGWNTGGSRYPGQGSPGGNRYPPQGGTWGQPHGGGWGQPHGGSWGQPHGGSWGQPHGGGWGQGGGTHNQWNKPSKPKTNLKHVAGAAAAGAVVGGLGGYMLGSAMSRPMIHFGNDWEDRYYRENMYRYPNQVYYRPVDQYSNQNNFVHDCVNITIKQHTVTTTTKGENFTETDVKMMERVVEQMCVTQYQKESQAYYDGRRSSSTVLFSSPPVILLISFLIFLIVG

These compounds were tested against mouse PrP^C (Mus musculus, UniProt P04925).
Compound `COc1cc(C2CC(=O)Nc3c2cnn3-c2ccc(F)cc2F)ccc1O` (centres unmarked) has a DC50 greater than 30 µM.
For `COc1cc(C2CC(=O)Nc3c2cnn3-c2ccc(Br)cc2)ccc1OCc1ccccc1` (centres unmarked), the DC50 was greater than 30 µM.
Compound `COc1cc(C2CC(=O)Nc3c2cnn3-c2ccc(F)cc2)ccc1O` (centres unmarked) has a DC50 greater than 30 µM.
In the case of `O=C1CC(c2ccc(Oc3ccccc3)cc2)c2cnn(-c3ccc(Br)cc3)c2N1` (centres unmarked), the DC50 is reported as greater than 30 µM.
For `COc1ccc(C2CC(=O)Nc3c2cnn3-c2ccc(F)c(Cl)c2)cc1O` (centres unmarked), the DC50 was greater than 30 µM.
In the case of `O=C1CC(c2ccc3c(c2)OCCO3)c2cnn(-c3ccc(I)cc3)c2N1` (centres unmarked), the DC50 is reported as greater than 30 µM.
`COc1cc(C2CC(=O)Nc3c2cnn3-c2ccc(I)cc2)ccc1O` (centres unmarked) [GC6] gave a DC50 of 7 µM.
Work on `COc1ccc(C2CC(=O)Nc3c2cnn3-c2ccccc2F)cc1O` (centres unmarked) yielded a DC50 greater than 30 µM.
`COc1cc(C2CC(=O)Nc3c2cnn3-c2ccc(C(F)(F)F)cc2)ccc1O` (centres unmarked) gave a DC50 greater than 30 µM.
`COc1ccc(C2CC(=O)N(C)c3c2cnn3-c2ccc(Br)cc2)cc1OC` (centres unmarked) gave a DC50 greater than 30 µM.
`COc1ccc(C2CC(=O)Nc3c2cnn3-c2cccc(Br)c2)cc1O` (centres unmarked) showed a DC50 greater than 30 µM.
In the case of `COc1cc(C2CC(=O)Nc3c2cnn3-c2ccccc2)ccc1O` (centres unmarked), the DC50 is reported as greater than 30 µM.
In the case of `COc1ccc(C2CC(=O)Nc3c2cnn3-c2ccc(Br)cc2)cc1O` (centres unmarked), the DC50 is reported as greater than 30 µM.
With `O=C1CC(c2ccccc2)c2cnn(-c3ccc(Br)cc3)c2N1` (centres unmarked) the DC50 was greater than 30 µM.
Work on `COc1cc(C2CC(=O)Nc3c2cnn3-c2ccc(Cl)cc2)ccc1O` (centres unmarked) yielded a DC50 of 24.6 µM.
For `COc1ccc(C2CC(=O)N(C)c3c2cnn3-c2ccc(I)cc2)cc1OC` (centres unmarked), the DC50 was greater than 30 µM.
`O=C1CC(c2ccc(O)cc2)c2cnn(-c3ccc(Br)cc3)c2N1` (centres unmarked) was tested, and the DC50 was 12.5 µM.
With `COc1cc(C2CC(=O)Nc3c2cnn3-c2ccccc2F)ccc1O` (centres unmarked) the DC50 was greater than 30 µM.
`COc1cc(C2CC(=O)Nc3c2cnn3-c2ccc(Br)cc2)cc(OC)c1OC` (centres unmarked) showed a DC50 greater than 30 µM.
For `COc1ccc(C2CC(=O)Nc3c2cnn3-c2ccc(I)cc2)cc1O` (centres unmarked), the DC50 was 8.8 µM.
Work on `CCOc1cc(C2CC(=O)Nc3c2cnn3-c2ccc(Br)cc2)ccc1OC` (centres unmarked) yielded a DC50 of 12 µM.
With `COc1cc(C2CC(=O)Nc3c2cnn3-c2cccc(Br)c2)ccc1O` (centres unmarked) the DC50 was greater than 30 µM.
Compound `COc1cc(C2CC(=O)Nc3c2cnn3-c2ccc(Br)cc2)ccc1O` (centres unmarked) [SM875] has a DC50 of 12.5 µM.
`O=C1CC(c2ccc3c(c2)OCCO3)c2cnn(-c3ccc(Br)cc3)c2N1` (centres unmarked) showed a DC50 of 10.2 µM.
`COc1cc(C2CC(=O)Nc3c2cnn3-c2ccccc2Br)ccc1O` (centres unmarked) was tested, and the DC50 was greater than 30 µM.
Work on `COc1cc(C2CC(=O)N(C)c3c2cnn3-c2ccc(Br)cc2)ccc1O` (centres unmarked) yielded a DC50 greater than 30 µM.
In the case of `COc1cc(C2CC(=O)Nc3c2cnn3-c2ccc(C)cc2)ccc1O` (centres unmarked), the DC50 is reported as greater than 30 µM.
With `COc1ccc(C2CC(=O)Nc3c2cnn3-c2ccc(F)cc2F)cc1O` (centres unmarked) the DC50 was greater than 30 µM.
Work on `COc1cc(C2CC(=O)Nc3c2c(C)nn3-c2ccc(Br)cc2)ccc1O` (centres unmarked) yielded a DC50 greater than 30 µM.
